PubChem BioAssay AID624099, ICCB-Longwood | 2012
Test: 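Human genes that papillomavirus E2 requires to repress the HPV18 LCR promoter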 (primary screen). Cell system: human C33A cervical carcinoma cells (HPV-negative) stably expressing BPV1 E2 and an HPV18 LCR luciferase reporter. Knock-down reagent: siRNA pool against human genes, 40 nM. Timing: 72 h. Measurement: 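Per-well luciferase luminescence, z-scored on each plate against the plate mean and SD with control wells left out, then averaged across three replicate plates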. Scale: mean z-score and z-score: higher = stronger reporter signal, weaker E2 silencing. Hit rule: 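Mean z ≥ 2 together with z ≥ 2 in two or more of the three replicates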.
Here is a random part of about 21,000 reagents tested. 497 of them (2.4%) count as active. 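Higher z means weaker E2 silencing; only reporter increases were scored, and knock-downs that hurt cell survival may mask genuine repressor factors.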

With PCMTD2 (GeneID 55251), what was measured?
mean z-score: -0.37; z-score, replicate A: -0.8; z-score, replicate B: -0.51; z-score, replicate C: 0.19; Outcome: inactive

For KCNK12 (GeneID 56660), what does the deposit list?
mean z-score: -0.85; z-score, replicate A: -0.7; z-score, replicate B: -1.1; z-score, replicate C: -0.77; Outcome: inactive

For METRN (GeneID 79006), what does the deposit list?
mean z-score: 0.1; z-score, replicate A: -0.22; z-score, replicate B: 0.47; z-score, replicate C: 0.06; Outcome: inactive

For AQP3 (GeneID 360), how do the results read?
mean z-score: -1.91; z-score, replicate A: -1.64; z-score, replicate B: -1.96; z-score, replicate C: -2.15; Outcome: inactive

Which result is listed for CCNT1 (GeneID 904)?
mean z-score: -0.15; z-score, replicate A: -0.29; z-score, replicate B: 0.1; z-score, replicate C: -0.26; Outcome: inactive

What is on record for SPATA31D3 (GeneID 389762)?
mean z-score: 1.79; z-score, replicate A: 1.47; z-score, replicate B: 2.08; z-score, replicate C: 1.82; Outcome: inactive

How did the screen score FGF7 (GeneID 2252)?
mean z-score: 0.16; z-score, replicate A: 0.05; z-score, replicate B: 0.24; z-score, replicate C: 0.2; Outcome: inactive

What is on record for C12orf57 (GeneID 113246)?
mean z-score: -0.32; z-score, replicate A: -0.63; z-score, replicate B: -0.15; z-score, replicate C: -0.17; Outcome: inactive

With CRYL1 (GeneID 51084), what does the deposit list?
mean z-score: 0.63; z-score, replicate A: 0.61; z-score, replicate B: 0.32; z-score, replicate C: 0.95; Outcome: inactive

For PPP1R35 (GeneID 221908), how do the results read?
mean z-score: -0.15; z-score, replicate A: -0.7; z-score, replicate B: -0.06; z-score, replicate C: 0.3; Outcome: inactive

With CLIP3 (GeneID 25999), what was measured?
mean z-score: 0.17; z-score, replicate A: 0.26; z-score, replicate B: 0.15; z-score, replicate C: 0.11; Outcome: inactive

For DMXL2 (GeneID 23312), what does the deposit list?
mean z-score: 0.26; z-score, replicate A: -0.02; z-score, replicate B: 0.16; z-score, replicate C: 0.63; Outcome: inactive

What did the screen give for SCARF1 (GeneID 8578)?
mean z-score: -0.58; z-score, replicate A: -0.66; z-score, replicate B: -0.44; z-score, replicate C: -0.64; Outcome: inactive

With NOTCH2 (GeneID 4853), what does the deposit list?
mean z-score: 0.03; z-score, replicate A: 0.17; z-score, replicate B: -0.09; z-score, replicate C: 0.02; Outcome: inactive

For SLC25A25-AS1 (GeneID 100289019), what does the deposit list?
mean z-score: -0.14; z-score, replicate A: -0.74; z-score, replicate B: 0.12; z-score, replicate C: 0.19; Outcome: inactive

With TMC2 (GeneID 117532), how do the results read?
mean z-score: -1.56; z-score, replicate A: -1.64; z-score, replicate B: -1.5; z-score, replicate C: -1.53; Outcome: inactive

What is on record for IL20 (GeneID 50604)?
mean z-score: 0; z-score, replicate A: -0.27; z-score, replicate B: 0.19; z-score, replicate C: 0.08; Outcome: inactive

For ANKRD18DP (GeneID 348840), what was measured?
mean z-score: -0.85; z-score, replicate A: -0.71; z-score, replicate B: -1.05; z-score, replicate C: -0.8; Outcome: inactive

For SORCS1 (GeneID 114815), how do the results read?
mean z-score: 0.05; z-score, replicate A: -0.01; z-score, replicate B: -0.03; z-score, replicate C: 0.2; Outcome: inactive

With EFL1 (GeneID 79631), how do the results read?
mean z-score: -0.46; z-score, replicate A: 0.13; z-score, replicate B: -0.45; z-score, replicate C: -1.05; Outcome: inactive

With NELL1 (GeneID 4745), what was measured?
mean z-score: -0.27; z-score, replicate A: -0.52; z-score, replicate B: -0.36; z-score, replicate C: 0.08; Outcome: inactive

Reprinted from the listing, 2 entries:
TMC2 (GeneID 117532): mean z-score = -1.56; z-score, replicate A = -1.64; z-score, replicate B = -1.5; z-score, replicate C = -1.53; Outcome = inactive
IL20 (GeneID 50604): mean z-score = 0; z-score, replicate A = -0.27; z-score, replicate B = 0.19; z-score, replicate C = 0.08; Outcome = inactive
